A mixed list of measured activities; the numbers were collected in NIAID ChemDB.

Shared fields: growth or infection tests; agent: Rhinovirus

Inhibition is in % at the dose shown (toxicity tests: loss of growth or viability).

SMILES	tested at	cell line	read-out	strain	method	result
CN(C)c1ccc(Cn2cnc3c(N(C)C)nc(C(F)(F)F)nc32)cc1	8 µM	M-HELA	inhibition	Serotype 21	plaque count	27%
NCS(=O)(=O)O	5 µg/mL	Human embryonic lung cells	inhibition		cytopathic effect	5%
Cc1cc(Cn2cnc3c(N(C)C)nc(C(F)(F)F)nc32)ccc1Cl	8 µM	M-HELA	inhibition	Serotype 30	plaque count	31%
CCOC(=O)/C=C/[C@H](C[C@@H]1CCNC1=O)NC(=O)[C@@H](CC(=O)[C@@H](NC(=O)c1cc(C)on1)C(C)C)Cc1ccc(F)cc1		OHIO HELA-I	EC50	Isolate 21	cytopathic effect / visual reading	<0.01 µg/mL
CN(C)c1nc(C(F)(F)F)nc2c1ncn2Cc1ccc(Cl)cc1Cl	8 µM	M-HELA	inhibition	Serotype 21	plaque count	30%
Cc1cc(-c2ccc(N=Nc3ccc4c(S(=O)(=O)O)cc(S(=O)(=O)O)c(N)c4c3O)c(C)c2)ccc1N=Nc1ccc2c(S(=O)(=O)O)cc(S(=O)(=O)O)c(N)c2c1O	50 µg/mL	Human amnion AV3 cells	inhibition		cytopathic effect	0%
CSc1nsc(-c2ccc(OCCCOc3ccc(C#N)cc3)cc2)c1C#N		HELA-OHIO	EC50	Serotype 42 (group A)	cytopathic effect	>2 µM
CCOC(=O)c1ccc(OCCC2CCN(c3ccc(C)nn3)CC2)cc1		KB	EC50	Norman (ICAM-1 receptor group 5)	neutral red	0.005 µM
Nc1ccc2cc([N+](=O)[O-])cc(S(=O)(=O)[O-])c2c1	10 µg/mL	Human embryonic lung cells	inhibition		cytopathic effect	60%
Cc1ccccc1Cn1cnc2c(N(C)C)nc(C(F)(F)F)nc21	8 µM	M-HELA	inhibition	Serotype 31	plaque count	47%
COc1ccc(-c2snc(SC)c2C#N)cc1		HELA-OHIO	EC50	Serotype 85 (group B)	cytopathic effect	>12 µM
O=S(=O)([O-])c1cc(O)c2ccccc2c1	50 µg/mL	Human amnion AV3 cells	inhibition		cytopathic effect	0%
CSc1nsc(-c2ccc(OCCCOc3ccccc3)cc2)c1C#N		HELA-OHIO	EC50	Serotype 14 (group A)	cytopathic effect	10 µM
Fc1cccc(Cn2cnc3c(Nc4cccc(F)c4)nc(C(F)(F)F)nc32)c1		M-HELA	EC50	Serotype 47	plaque count	1.7 µM
Cc1cc(-c2ccc(N=Nc3c(S(=O)(=O)O)cc4cc(S(=O)(=O)O)cc(N)c4c3O)c(C)c2)ccc1N=Nc1c(S(=O)(=O)O)cc2cc(S(=O)(=O)O)cc(N)c2c1O	10 µg/mL	Human amnion AV3 cells	inhibition		cytopathic effect	0%
Cc1cc(CCCCCOc2c(Cl)cc(C3=NCCO3)cc2Cl)on1		HeLa	EC50	TYPE 9	plaque count	0.075 µg/mL
CSc1nsc(-c2ccc(OCCCCOc3ccc([N+](=O)[O-])cc3)cc2)c1C#N		HELA-OHIO	EC50	Serotype 59 (group B)	cytopathic effect	>0.5 µM
CSc1nsc(-c2ccccc2)c1C#N		HELA-OHIO	EC50	Serotype 15 (group B)	cytopathic effect	>80 µM
CN(c1cccc(F)c1)c1nc(C(F)(F)F)nc2c1ncn2Cc1cccc(F)c1		M-HELA	EC50	Serotype 5	plaque count	>10 µM
CSc1nsc(-c2ccc(OCCOc3ccc(C#N)cc3)cc2)c1C#N		HELA-OHIO	EC50	Serotype 39 (group B)	cytopathic effect	>2 µM

Repeating the first 2 entries:

SMILES	tested at	cell line	read-out	strain	method	result
CN(C)c1ccc(Cn2cnc3c(N(C)C)nc(C(F)(F)F)nc32)cc1	8 µM	M-HELA	inhibition	Serotype 21	plaque count	27%
NCS(=O)(=O)O	5 µg/mL	Human embryonic lung cells	inhibition		cytopathic effect	5%

ECn: concentration that inhibits the pathogen or its effect by n%. Conditions beyond the fields shown may differ between rows. Blank or dashed fields: not listed here.